Consider 1 substance from US10806164B2 (priority 2016, dated 2020).

The conditions of this series: rat, in vivo.

Marks after values point to notes of the source that are not given here.

Regarding Deoxynivalenol [DON], the “Conversion food Means ± Standard error” value was 6.15 ± 0.287 ^b, the “Gain of weight Means ± Standard error” value was 83 ± 3.45 ^b and the “Weight Final Means ± Standard error” value was 169 ± 3.69 ^b g.
